Compound potency records, mixed from different reports. Data source: NIAID ChemDB in PubChem.

Shared fields: tests in culture; organism: Candida albicans; read-out: zone

Blank or dashed fields: not listed here.

SMILES | read by | strain | tested at | value
CSC1=NC(c2ccccc2[N+](=O)[O-])C(C#N)=C(N)N1 | agar diffusion | MTCC 227 | 50 µg/mL | 18 mm
NNC(=O)Cc1nnc2nnc3c(n12)Nc1ccccc1C3 | - | ATCC 2091 | 1000 µg/mL | 23 mm
O=C1C(Cl)C(c2ccc(Cl)cc2)N1Nc1nc2ccccc2n2nnnc12 | agar diffusion | ATCC 2091 | 50 µg/mL | 8 mm
CC(=O)N1N=C(C23CC4CC(CC(C4)C2)C3)OC1c1cc(-c2ccc(Cl)cc2)on1 | agar diffusion / agar | IFO 0583 | 200 µg | ≤10 mm
O=C(Cc1nnc2n1-c1nc3ccccc3nc1NN2)NNC(=S)Nc1ccccc1 | - | ATCC 2091 | 1000 µg/mL | 34 mm
Cc1c(Cc2ccc(Cl)cc2)nc(SCCN2C(=O)c3ccccc3C2=O)[nH]c1=O | agar diffusion / agar | ATCC 10231 | 200 µg/disc | 22 mm
CS(=O)(=O)c1nc(N)c(C#N)c(-c2ccccc2)n1 | agar diffusion | MTCC 227 | 50 µg/mL | 18 mm
COC(=O)N[C@H](C(=O)NN(CC[C@@]1(Cc2ccccc2)C(=O)N(C2c3ccccc3C[C@H]2O)C[C@@H]1O)Cc1ccc(Br)cc1)C(C)(C)C | agar diffusion / agar | - | 10 mg/mL | 12.8 mm
CC1(C)CC(=O)c2cc(/C=C/C(=O)c3ccc(Cl)cc3)[nH]c2C1 | - | ATCC 2091 | 1000 µg/mL | 24 mm
Oc1cc2ccccc2cc1/C=N/NC(=S)N/N=C/c1cc2ccccc2cc1O | agar diffusion / agar | - | 2 mg/mL | 16 mm
COC(=O)N[C@H](C(=O)NN(CC[C@@]1(Cc2ccccc2)C(=O)N(C2c3ccccc3C[C@H]2O)C[C@H]1O)Cc1ccc(-c2cccnc2)cc1)C(C)(C)C | agar diffusion / agar | - | 10 mg/mL | 12.8 mm
CCc1c(Cc2ccc(OC)c(OC)c2)nc(SCCN(CC)CC)[nH]c1=O | agar diffusion / agar | ATCC 10231 | 200 µg/disc | 21 mm
NNC(=O)Cc1nnc2n1-c1nc3ccccc3nc1NN2 | - | ATCC 2091 | 1000 µg/mL | 22 mm
CC(=O)Nc1ccc(Br)cc1Sc1ncccc1[N+](=O)[O-] | - | MTCC 227 | 100 µg/mL | 13 mm
Cc1nc2ccccc2n(CC(=O)NN2C(=O)CSC2c2ccccc2F)c1=O | - | - | 100 µg/mL | 14 mm
O=C1CSC(c2ccc(C(F)(F)F)cc2)N1Nc1nc2ccccc2n2nnnc12 | agar diffusion | ATCC 2091 | 50 µg/mL | 8 mm
COC(=O)N[C@H](C(=O)NN(CC[C@@]1(Cc2ccccc2)C(=O)N(C2c3ccccc3C[C@H]2O)C[C@@H]1O)Cc1ccc(-c2cccnc2)cc1)C(C)(C)C | agar diffusion / agar | - | 10 mg/mL | 12.8 mm
O=C1C(Cl)C(c2ccccc2[N+](=O)[O-])N1Nc1nc2ccccc2n2nnnc12 | agar diffusion | ATCC 2091 | 50 µg/mL | 8 mm
Cc1nc2ccccc2n(CC(=O)NN2C(=O)CSC2c2ccc(O)cc2)c1=O | - | - | 100 µg/mL | 22 mm
O=C1CSC(c2ccc([N+](=O)[O-])cc2)N1Nc1nc2ccccc2n2nnnc12 | agar diffusion | ATCC 2091 | 50 µg/mL | 10 mm
c1ccc2c(c1)Sc1cccnc1N2CCCCCCN1c2ccccc2Sc2cccnc21 | - | MTCC 227 | 100 µg/mL | 12 mm
Cc1c(Cc2ccc(Cl)cc2)[nH]c(=S)[nH]c1=O | agar diffusion / agar | ATCC 10231 | 200 µg/disc | 15 mm
COc1ccc(-c2cc(C3OC(C45CC6CC(CC(C6)C4)C5)=NN3C(C)=O)no2)cc1 | agar diffusion / agar | IFO 0583 | 200 µg | ≤10 mm
COC(=O)N[C@H](C(=O)NN(CC[C@@]1(Cc2ccccc2)C(=O)N(C2c3ccccc3C[C@H]2O)C[C@H]1O)Cc1ccc(Br)cc1)C(C)(C)C | agar diffusion / agar | - | 10 mg/mL | 12.8 mm
Cc1nc2ccccc2n(CC(=O)NN2C(=O)CSC2c2ccc([N+](=O)[O-])cc2)c1=O | - | - | 100 µg/mL | 21 mm
O=C1CSC(c2ccccc2F)N1Nc1nc2ccccc2n2nnnc12 | agar diffusion | ATCC 2091 | 50 µg/mL | 7 mm
Brc1ccc2c(c1)Sc1cccnc1N2CCCCN1c2ccc(Br)cc2Sc2cccnc21 | - | MTCC 227 | 100 µg/mL | 11 mm
NS(=O)(=O)c1ccc(C2C=C(c3ccc(Br)cc3)CC2c2ccccc2)cc1 | - | ATCC 2091 | 1000 µg/mL | 23 mm
COc1ccc(-c2cc(C(F)(F)F)c3c(-c4ccc(C)cc4)nn(-c4ccc(S(N)(=O)=O)cc4)c3n2)cc1 | agar diffusion / agar | MTCC 227 | 4000 µg/mL | 0 mm
CCc1c(Cc2ccc(Cl)cc2)nc(SCCN2CCOCC2)[nH]c1=O | agar diffusion / agar | ATCC 10231 | 200 µg/disc | 15 mm
CC(=O)N1N=C(C23CC4CC(CC(C4)C2)C3)OC1c1cc(-c2ccc(C)cc2)on1 | agar diffusion / agar | IFO 0583 | 200 µg | ≤10 mm
CCc1c(Cc2ccc(OC)c(OC)c2)nc(SCCN2CCOCC2)[nH]c1=O | agar diffusion / agar | ATCC 10231 | 200 µg/disc | 25 mm
Cc1ccc(-c2cc(C(F)(F)F)c3c(-c4ccc(C)cc4)nn(-c4ccc(S(N)(=O)=O)cc4)c3n2)cc1 | agar diffusion / agar | MTCC 227 | 4000 µg/mL | 0 mm
COc1ccc(C2=NOC(c3cc4c([nH]3)CC(C)(C)CC4=O)C2)cc1 | - | ATCC 2091 | 1000 µg/mL | 23 mm
COc1ccc(C2SCC(=O)N2Nc2nc3ccccc3n3nnnc23)cc1 | agar diffusion | ATCC 2091 | 50 µg/mL | 7 mm
CS(=O)(=O)C1=NC(c2cccc3cc4ccccc4cc23)C(C#N)=C(N)N1 | agar diffusion | MTCC 227 | 50 µg/mL | 18 mm
COc1ccc(C2SCC(=O)N2NC(=O)Cn2c(=O)c(C)nc3ccccc32)cc1O | - | - | 50 µg/mL | 11 mm
CS(=O)(=O)c1nc(N)c(C#N)c(-c2ccccc2Cl)n1 | agar diffusion | MTCC 227 | 25 µg/mL | 17 mm
Brc1ccc2c(c1)Sc1cccnc1N2CCCCCCN1c2ccc(Br)cc2Sc2cccnc21 | - | MTCC 227 | 100 µg/mL | 11 mm
CSC1=NC(c2ccccc2)C(C#N)=C(N)N1 | agar diffusion | MTCC 227 | 25 µg/mL | 15 mm
Clc1ccc2c(c1)Sc1cccnc1N2CCCCCCN1c2ccc(Cl)cc2Sc2cccnc21 | - | MTCC 227 | 100 µg/mL | 12 mm
O=C1CSC(c2ccc(O)cc2)N1Nc1nc2ccccc2n2nnnc12 | agar diffusion | ATCC 2091 | 100 µg/mL | 13 mm
NNc1nnc2c(n1)Nc1ccccc1C2 | - | ATCC 2091 | 1000 µg/mL | 23 mm
CCc1c(Cc2ccc(Cl)cc2)nc(SCCCN2C(=O)c3ccccc3C2=O)[nH]c1=O | agar diffusion / agar | ATCC 10231 | 200 µg/disc | 12 mm
NS(=O)(=O)c1ccc(-n2nc(-c3ccc(Cl)cc3)c3c(C(F)(F)F)cc(-c4ccc(F)cc4)nc32)cc1 | agar diffusion / agar | MTCC 227 | 4000 µg/mL | 0 mm
CC1(C)CC(=O)c2cc(C3CC(c4ccc(Br)cc4)=NN3)[nH]c2C1 | - | ATCC 2091 | 1000 µg/mL | 22 mm
C/C=C/C1=CC2=CC(=O)[C@](C)(OC(=O)c3c(C)cc(O)cc3OC)C(=O)C2=CO1 | agar diffusion | ATCC 64548 | 25 µg/disc | 0 mm
Clc1ccccc1C(c1ccccc1)(c1ccccc1)n1ccnc1 | agar diffusion / agar | ATCC 10231 | 200 µg/disc | 38 mm
O=C1CSC(c2ccc(Cl)cc2)N1Nc1nc2ccccc2n2nnnc12 | agar diffusion | ATCC 2091 | 50 µg/mL | 9 mm

For reference, 3 entries again:

SMILES	read by	strain	tested at	value
CS(=O)(=O)C1=NC(c2cccc3cc4ccccc4cc23)C(C#N)=C(N)N1	agar diffusion	MTCC 227	50 µg/mL	18 mm
O=C(Cc1nnc2n1-c1nc3ccccc3nc1NN2)NNC(=S)Nc1ccccc1	-	ATCC 2091	1000 µg/mL	34 mm
CC1(C)CC(=O)c2cc(/C=C/C(=O)c3ccc(Cl)cc3)[nH]c2C1	-	ATCC 2091	1000 µg/mL	24 mm

Rows are shuffled and stem from different studies. Zones are inhibition diameters on agar.